Experimental data published in US20150023988A1.
Several values for one entry are separate records, joined by “and”; a condition that tells them apart may be missing. Equal values may be shown once.

Experiments:
Experiment in all cases: cell-based or functional assay
[1] = target: human voltage-gated sodium channel Nav1.3 (human) (UniProt Q9NY46)
[2] = target: human voltage-gated sodium channel Nav1.4 (human) (UniProt P35499)
[3] = target: human voltage-gated sodium channel Nav1.5 (human) (UniProt Q14524)
[4] = target: human voltage-gated sodium channel Nav1.7 (human) (UniProt Q15858)
[5] = target: human voltage-gated sodium channel Nav1.4 (human), P35499
[6] = target: human voltage-gated sodium channel Nav1.5 (human), Q14524
[7] = target: human voltage-gated sodium channel Nav1.7 (human), Q15858

| Molecule | IC50 (IonWorks Quattro) [1] | IC50 (IonWorks Quattro) [2] | IC50 (IonWorks Quattro) [3] | IC50 (IonWorks Quattro) [4] | Nav1.4/Nav1.7 (ratio of IC50s) [2] | also measured |
| --- | --- | --- | --- | --- | --- | --- |
| [Asp20]JzTx-V(1-29) (peptide; modification not given) | > 5 µM | > 5 µM | 11.1 µM | 0.09 µM | – | PX hNav1.4 Tonic IC50 [2]: 7.6 µM; PX hNav1.5 Tonic IC50 [3]: 3.2 µM; PX hNav1.7 Tonic IC50 [4]: 0.749 µM |
| [Atz(NPEG10)1;Glu20]JzTx-V(1-29) (peptide; modification not given) | > 5 µM | > 5 µM | 15.1 µM | – | 28 | – |
| [Atz(NPEG10)5;Nle6]JzTx-V(1-29) (peptide; modification not given) | > 7 µM | > 7 µM | > 7 µM | > 7 µM | – | – |
| [Glu1,20;Tyr28]JzTx-V(1-29) (peptide; modification not given) | > 5 µM | > 5 µM | 2 µM | – | – | – |
| [Glu1;1-Nal7]JzTx-V(1-29) (peptide; modification not given) | 0.4 µM and 0.5 µM | 0.7 µM and 0.5 µM | > 5 µM | – | 21 and 10 | – |
| [Glu20,28]JzTx-V(1-29) (peptide; modification not given) | > 5 µM | > 5 µM | 15.8 µM and 7.5 µM | 0.95 µM and 1.44 µM | 5 and 3 | – |
| [Glu20,29;Tyr28]JzTx-V(1-29) (peptide; modification not given) | > 5 µM | > 5 µM | > 5 µM | – | – | – |
| [Glu20;1-Nal24;Tyr28]JzTx-V(1-29) (peptide; modification not given) | > 7 µM | > 7 µM | > 7 µM | 0.3 µM | – | – |
| [Glu20;2-Nal24;Tyr28]JzTx-V(1-29) (peptide; modification not given) | > 7 µM | > 7 µM | > 7 µM | 1 µM | – | – |
| [Glu20;Abu28]JzTx-V(1-29) (peptide; modification not given) | > 5 µM | > 5 µM | 8.2 µM and 11.1 µM | 0.17 µM and 0.21 µM | 29 and 24 | – |
| [Glu20;Asn24;Tyr28]JzTx-V(1-29) (peptide; modification not given) | > 5 µM | > 5 µM | > 5 µM | > 5 µM | – | – |
| [Glu20;Asp28]JzTx-V(1-29) (peptide; modification not given) | > 5 µM | > 5 µM | 13.9 µM | 1.34 µM | 4 | – |
| [Glu20;Atz(NPEG10)23]JzTx-V(1-29) (peptide; modification not given) | > 5 µM | > 5 µM | – | 5 µM | 1 | – |
| [Glu20;Atz(NPEG10)29]JzTx-V(1-29) (peptide; modification not given) | > 5 µM | > 5 µM | – | 5 µM | 1 | – |
| [Glu20;Cit28]JzTx-V(1-29) (peptide; modification not given) | > 5 µM | > 5 µM | 12 µM | 0.11 µM | 46 | – |
| [Glu20;Cpa28]JzTx-V(1-29) (peptide; modification not given) | > 5 µM | > 5 µM | 16.7 µM | 2.35 µM | 2 | – |
| [Glu20;Gly28]JzTx-V(1-29) (peptide; modification not given) | > 5 µM | > 5 µM | 10.9 µM and 11.1 µM | 0.3 µM and 0.37 µM | 17 and 13 | – |
| [Glu20;Leu24;Tyr28]JzTx-V(1-29) (peptide; modification not given) | > 5 µM | > 5 µM | > 5 µM | > 5 µM | – | – |
| [Glu20;Leu28]JzTx-V(1-29) (peptide; modification not given) | > 5 µM | > 5 µM | 6.7 µM | 0.41 µM | 12 | – |
| [Glu20;Lys24;Tyr28]JzTx-V(1-29) (peptide; modification not given) | > 5 µM | > 5 µM | > 5 µM | – | – | – |
| [Glu20;Nle24;Tyr28]JzTx-V(1-29) (peptide; modification not given) | > 5 µM | > 5 µM | > 5 µM | > 5 µM | – | – |

| Molecule | IC50 (IonWorks Quattro) [1] | IC50 (IonWorks Quattro) [2] | IC50 (IonWorks Quattro) [3] | IC50 (IonWorks Quattro) [4] | Nav1.4/Nav1.7 (ratio of IC50s) [2] | also measured |
| --- | --- | --- | --- | --- | --- | --- |
| [Glu20;Nva24;Tyr28]JzTx-V(1-29) (peptide; modification not given) | > 5 µM | > 5 µM | > 5 µM | > 5 µM | – | – |
| [Glu20;Nva28]JzTx-V(1-29) (peptide; modification not given) | > 5 µM | > 5 µM | 8.9 µM and 15.8 µM | 0.08 µM and 0.15 µM | 66 and 34 | – |
| [Glu20;Ser28]JzTx-V(1-29) (peptide; modification not given) | > 5 µM | > 5 µM | 13.9 µM and 9.2 µM | 0.08 µM and 0.15 µM | 62 and 34 | – |
| [Glu20;Trp29]JzTx-V(1-29) (peptide; modification not given) | 3.62 µM | > 5 µM | 6.9 µM | 0.03 µM | 178 | – |
| [Glu20;Tyr28;Asn29]JzTx-V(1-29) (peptide; modification not given) | > 5 µM | > 5 µM | > 5 µM | – | – | – |
| [Glu20;Tyr28;Leu29]JzTx-V(1-29) (peptide; modification not given) | 3 µM and > 5 µM | > 5 µM | > 5 µM | – | – | – |
| [Glu20;Tyr28;Nle29]JzTx-V(1-29) (peptide; modification not given) | 4 µM | > 5 µM | > 5 µM | – | – | – |
| [Glu20;Tyr28;Ser29]JzTx-V(1-29) (peptide; modification not given) | > 5 µM | > 5 µM | > 5 µM | – | – | – |
| [Glu20;Tyr28]JzTx-V(1-29) (peptide; modification not given) | 2.01 µM | > 3.5 µM | 8 µM | 0.09 µM | 41 | – |
| [Glu20;Val24;Tyr28]JzTx-V(1-29) (peptide; modification not given) | > 5 µM | > 5 µM | > 5 µM | > 5 µM | – | – |
| [Glu20;Val28]JzTx-V(1-29) (peptide; modification not given) | 4.85 µM | 4 µM | 12 µM | 0.08 µM | 51 | – |
| [Nle6;Atz(NPEG10)8]JzTx-V(1-29) (peptide; modification not given) | > 7 µM | > 7 µM | > 7 µM | – | – | – |
| [Nle6;Atz(NPEG10)11]JzTx-V(1-29) (peptide; modification not given) | 0.2 µM and 0.4 µM | 0.4 µM and 0.5 µM | > 5 µM | – | 4 | – |
| VYCQKWLWTCDSKRKCCEGLRCKLWCRKII (modifications not checked) [Nva-[Leu6; Lys(Atz(NPEG10))14]JzTx-V(1-29)] | – | – | – | – | – | PX hNav1.4 Tonic IC50 [5]: 0.128 µM; PX hNav1.5 Tonic IC50 [6]: 2.41 µM; PX hNav1.7 Tonic IC50 [7]: 0.0116 µM |
| GCQKWLWTCDSKRACCEGLECKLWCRKII (modifications not checked) [[Pra1; Nle6; Glu20]JzTx-V(1-29)] | – | – | – | – | – | PX hNav1.4 Tonic IC50 [5]: 0.79 µM; PX hNav1.5 Tonic IC50 [6]: 2.66 µM; PX hNav1.7 Tonic IC50 [7]: 0.00263 µM |
| GYCQKWLWTCDSKRACCEGLECKLWCRKYI (modifications not checked) [Pra-[Nle6; Glu20; Tyr28]JzTx-V(1-29)] | – | – | – | – | – | PX hNav1.4 Tonic IC50 [5]: 0.966 µM; PX hNav1.5 Tonic IC50 [6]: 4.37 µM; PX hNav1.7 Tonic IC50 [7]: 0.000427 µM |
| VYCQKWLWTCDSKRKCCEGLRCKLWCRKII (modifications not checked) [Nva-[Nle6, Lys(Atz(NPEG10)-NPEG4)14]JzTx-V(1-29)] | – | – | – | – | – | PX hNav1.4 Tonic IC50 [5]: 0.0513 µM; PX hNav1.5 Tonic IC50 [6]: 0.95 µM; PX hNav1.7 Tonic IC50 [7]: 0.00967 µM |
| YCQKWLWTCDSKRGCCEGLRCKLWCRKII (modifications not checked) [[Nle6, Pra14]JzTx-V(1-29)] | – | – | – | – | – | PX hNav1.4 Tonic IC50 [5]: 0.005 µM; PX hNav1.5 Tonic IC50 [6]: 0.63 µM; PX hNav1.7 Tonic IC50 [7]: 0.0003 µM |
| YCQKWLWTCDSKRACCGGLECKLWCRKYI (modifications not checked) [[Nle6; Pra17; Glu20; Tyr28]JzTx-V(1-29)] | – | – | – | – | – | PX hNav1.4 Tonic IC50 [5]: 0.614 µM; PX hNav1.5 Tonic IC50 [6]: 3.52 µM; PX hNav1.7 Tonic IC50 [7]: 0.0038 µM |
| AYCQKWLWTCDSKRACCAGLRCKLWCRKEI (modifications not checked) [CyA-[Nle6, Atz(NPEG10)17, Glu28]JzTx-V(1-29)] | – | – | – | – | – | Nav1.4/Nav1.7 [5]: 31 fold; PX hNav1.4 Tonic IC50 [5]: 0.172 µM; Nav1.5/Nav1.7 [6]: 236 fold; PX hNav1.5 Tonic IC50 [6]: 1.33 µM; PX hNav1.7 Tonic IC50 [7]: 0.00562 µM |
| YCQKWLWTCDSKRACCGGLECKLWCRKII (modifications not checked) [[Nle6; Pra17; Glu20]JzTx-V(1-29)] | – | – | – | – | – | PX hNav1.4 Tonic IC50 [5]: 0.291 µM; PX hNav1.5 Tonic IC50 [6]: 1.02 µM; PX hNav1.7 Tonic IC50 [7]: 0.00995 µM |
